Pooled drug test results. Numbers come from NIAID ChemDB, via PubChem.

MIC bound comes from a single tested concentration.

structure | species | kind | target | cells | strain | read by | measure | dose | result
O=C(Nc1nnc(NCC(c2ccccc2)c2ccccc2)s1)c1ccc(S(=O)(=O)F)cc1 | Human cytomegalovirus | target | Polymerase | - | - | - | IC50 | - | <25 µM
Fc1ccc(N2CCCCC2)c(NC(=S)c2ccncc2)c1 | - | host protein | Abl (E255K) | - | - | kinase activity | inhibition | 10 µM | -5.6%
CC(=O)c1ccc(-c2cncc(N3CCN(c4ccc(C)cc4C)CC3)n2)s1 | Cytomegalovirus | target | UL97 kinase | - | - | - | IC50 | - | <100 µM
Nc1cc([N+](=O)[O-])ccc1C(=O)O | Mycobacterium tuberculosis | culture | - | - | H37Rv | - | MIC | - | >100 µg/mL
O=C(Nc1nnc(-c2coc3ccccc3c2=O)s1)c1ccccc1 | Mycobacterium tuberculosis | culture | - | - | H37Rv | BACTEC | MIC bound | - | >12.5 µg/mL
CCOC(=O)Nc1cc2c(c(N)n1)N=C1c3ccccc3CCC1O2.Cl.Cl | Encephalitozoon intestinalis | culture | - | RK-13 | - | - | inhibition | 0.1 µg/mL | 28.3%
CCCC(C)C1(CC)C(=O)NC(=S)NC1=O | Mycobacterium tuberculosis | culture | - | - | H37Rv | - | MIC | - | 50 µg/mL
O=S(=O)(O)c1cc(O)c2c(O)cc(S(=O)(=O)O)cc2c1 | Herpes simplex virus | culture | - | Human conjunctiva cells | - | cytopathic effect | inhibition | 10 µg/mL | 10%
COc1ccc2c(c1)OC(c1ccccc1)CC2=O | Mycobacterium tuberculosis | culture | - | - | - | - | EC50 | - | >12.5 µg/mL
CCOC(=O)Nc1cc(NC(C)/C(=N/O)c2cccc([N+](=O)[O-])c2)c([N+](=O)[O-])c(N)n1 | Encephalitozoon intestinalis | culture | - | RK-13 | - | - | inhibition | 0.01 µg/mL | 0%
NS(=O)(=O)c1ccc(CCNc2nnc(NC(=O)/C=C/c3ccccc3)s2)cc1 | Human cytomegalovirus | target | Polymerase | - | - | - | IC50 | - | <25 µM
O=c1[nH]c2ccccc2o1 | Mycobacterium tuberculosis | culture | - | - | H37Rv | - | MIC | - | 100 µg/mL
COc1ccc(/C=C/C(=O)c2cccc(F)c2O)cc1 | Mycobacterium tuberculosis | culture | - | - | H37Rv | - | EC50 | - | >12.5 µg/mL
CCOC(=O)Nc1cc2c(nc(-c3ccccc3)c3nnnn32)c(NC(c2ccccc2)c2ccccc2)n1 | Encephalitozoon intestinalis | culture | - | RK-13 | - | - | inhibition | 0.01 µg/mL | 59.5%
CCOc1ccc(-c2cncc(N3CCN(c4ccccc4OC)CC3)n2)cc1 | Cytomegalovirus | target | UL97 kinase | - | - | - | IC50 | - | <100 µM
Nc1c(S(=O)(=O)O)cc2cc(S(=O)(=O)O)cc(O)c2c1O | Herpes simplex virus | culture | - | Human conjunctiva cells | - | cytopathic effect | inhibition | 10 µg/mL | 0%
CCOC(=O)Nc1ccc(C(=O)Nc2ccccc2)c(O)c1 | Mycobacterium tuberculosis | culture | - | - | H37Rv | - | MIC | - | >100 µg/mL
O=C(/C=C/c1ccccn1)c1ccccn1 | Mycobacterium tuberculosis | culture | - | - | - | - | inhibition | 12.5 µg/mL | 42%
O=C1c2ccccc2C(=O)N1CCCOc1ccccc1 | Mycobacterium tuberculosis | culture | - | - | H37Rv | - | MIC | - | >100 µg/mL
CCCSc1ccc2nc(NC(=O)OC)[nH]c2c1 | Vittaforma corneae | culture | - | RK-13 | - | - | inhibition | 10 µg/mL | 93.8%
CN[C@@H](C)[C@@H](O)c1ccccc1 | Mycobacterium tuberculosis | culture | - | - | H37Rv | - | MIC | - | >100 µg/mL
CC(=O)Oc1ccccc1C(=O)Nc1ncc([N+](=O)[O-])s1 | Encephalitozoon intestinalis | culture | - | RK-13 | - | - | inhibition | 0.001 µg/mL | 19.4%
O=C(Nc1nnc(NC2CCCCCC2)s1)c1cccc([N+](=O)[O-])c1 | Human cytomegalovirus | target | Polymerase | - | - | - | IC50 | - | >25 µM
CNC(=O)NC(C)=O | Mycobacterium tuberculosis | culture | - | - | H37Rv | - | MIC | - | >100 µg/mL
COc1ccc2cc(-c3cncc(N4CCN(c5ccccc5OC)CC4)n3)ccc2c1 | Cytomegalovirus | target | UL97 kinase | - | - | - | IC50 | - | <100 µM
O=C(CNc1cc(=O)[nH]c(=S)[nH]1)NC1=NN(c2ccccc2)C(=O)C1 | Mycobacterium tuberculosis | culture | - | - | H37Rv | - | MIC | - | >100 µg/mL
CCOC(=O)Nc1cc2[nH]c(=O)c(-c3ccccc3)nc2c(NC(c2ccccc2)c2ccccc2)n1 | Encephalitozoon intestinalis | culture | - | RK-13 | - | - | inhibition | 1 µg/mL | 78.8%
O=[N+]([O-])c1cc([N+](=O)[O-])c2ccc(S(=O)(=O)O)cc2c1O | Herpes simplex virus | culture | - | Human conjunctiva cells | - | cytopathic effect | inhibition | 5 µg/mL | 20%
NC(=S)Nc1ccccc1Cl | Mycobacterium tuberculosis | culture | - | - | H37Rv | - | MIC | - | >100 µg/mL
COc1cccc(N2CCN(c3cncc(-c4cccc(C(C)=O)c4)n3)CC2)c1 | Cytomegalovirus | target | UL97 kinase | - | - | - | inhibition | 1 µM | <50%
O=C1CC(c2ccc(O)c(O)c2)Oc2c1c(O)cc(O[C@@H]1O[C@H](CO)[C@@H](O)[C@H](O)[C@H]1O)c2C1C(=O)c2c(O)cc(O)cc2OC1c1ccc(O)cc1 | Mycobacterium tuberculosis | culture | - | - | - | - | EC50 | - | >12.5 µg/mL
CCCCCCCCCCCNc1nnc(NC(=O)c2c(C(C)C)cc(C(C)C)cc2C(C)C)s1 | Human cytomegalovirus | target | Polymerase | - | - | - | IC50 | - | >25 µM
O=S(=O)(CCl)c1ccccc1 | Mycobacterium tuberculosis | culture | - | - | H37Rv | - | MIC | - | >100 µg/mL
O=C(Nc1nnc(NC2CCc3ccccc32)s1)c1c(Cl)cccc1Cl | Human cytomegalovirus | target | Polymerase | - | - | - | IC50 | - | <25 µM
C#CC[C@@H](C(=O)N[C@H](/C=C/C(=O)OCC)C[C@@H]1CCNC1=O)n1cccc(NC(=O)c2cc(C)on2)c1=O | Rhinovirus | culture | - | H1-HELA | Clinical isolate 0 (serotype 39) | cytopathic effect / XTT | inhibition | 0.142 µM | 90%
O=C(O)c1cccc2c1oc1ccccc12 | Mycobacterium tuberculosis | culture | - | - | H37Rv | - | MIC | - | >100 µg/mL
O=C1C(c2[nH]c3ccc(S(=O)(=O)O)cc3c2O)=Nc2ccc(S(=O)(=O)O)cc21 | Herpes simplex virus | culture | - | Human conjunctiva cells | - | cytopathic effect | inhibition | 10 µg/mL | 0%
O=C(O)c1cc(Cl)sc1Cl | Mycobacterium tuberculosis | culture | - | - | H37Rv | - | MIC | - | 100 µg/mL
O=C1c2ccccc2OC(c2ccccc2)C1I | Mycobacterium tuberculosis | culture | - | - | H37Rv | - | inhibition | 12.5 µg/mL | 0%
CCCCCCCCCCCNc1nnc(NC(=O)c2cc3ccccc3s2)s1 | Human cytomegalovirus | target | Polymerase | - | - | - | IC50 | - | >25 µM
CCOC(=O)Nc1ccc(C(=O)O)c(O)c1 | Mycobacterium tuberculosis | culture | - | - | H37Rv | - | MIC | - | 100 µg/mL
CC(=O)N[C@H]1[C@H]([C@H](O)[C@H](O)CO)OC(C(=O)O)=C[C@@H]1N=C(N)N | Influenza A virus | culture | - | MDCK | Influenza A/Shandong/09/93 (H3N2) | visual reading | EC50 | - | 0.07 µM
Oc1cc(CN2CCOCC2)cc(CN2CCOCC2)c1O | Mycobacterium tuberculosis | culture | - | - | H37Rv | - | MIC | - | >100 µg/mL
C=CCc1ccc(O)c(OC)c1 | Candida glabrata | culture | - | - | 3249 | turbidity | MIC90 | - | 495 µg/mL
OCCN(CCO)c1ccccc1 | Mycobacterium tuberculosis | culture | - | - | H37Rv | - | MIC | - | >100 µg/mL
CCO/N=C/c1ccc(OCCC2CCN(c3ccc(C)nn3)CC2)cc1 | Rhinovirus | culture | - | KB | 107E (ICAM-1 receptor group 73) | neutral red | EC50 | - | 0.027 µM
Cc1ccc(N2CCN(c3cncc(-c4ccc(F)c(Cl)c4)n3)CC2)cc1C | Cytomegalovirus | target | UL97 kinase | - | - | - | IC50 | - | <100 µM
CCOC(=O)Nc1cc(NC(C)/C(=N/O)c2ccc(O)cc2)c([N+](=O)[O-])c(N)n1 | Encephalitozoon intestinalis | culture | - | RK-13 | - | - | inhibition | 0.01 µg/mL | 7.3%
O=C(/C=C/c1ccco1)c1ccc(Br)cc1O | Mycobacterium tuberculosis | culture | - | - | H37Rv | - | inhibition | 12.5 µg/mL | 17%
COc1cc(C[C@H](C)[C@H](C)Cc2ccc(O)c(O)c2)ccc1O | Candida albicans | culture | - | - | CCC 127-2000 | broth dilution | MIC50 | - | 31.25 µg/mL
OC(c1ccccc1)c1ccccc1 | Mycobacterium tuberculosis | culture | - | - | H37Rv | - | MIC | - | >100 µg/mL
CCOC(=O)/C=C/[C@H](C[C@@H]1CCNC1=O)NC(=O)[C@@H](CC(=O)[C@@H](NC(=O)c1cc(C)on1)C(C)C)Cc1ccc(F)cc1 | Rhinovirus | culture | - | OHIO HELA-I | Isolate 37 | cytopathic effect / visual reading | EC50 | - | 0.02 µg/mL
O=C(O)c1c2c3c(cccc3[nH]c1=O)C(=O)c1ccccc1-2 | Mycobacterium tuberculosis | culture | - | - | H37Rv | - | MIC | - | >100 µg/mL
CCOc1ccc(OCC)c(NCc2cnc3nc(N)nc(N)c3c2C)c1 | Encephalitozoon intestinalis | culture | - | RK-13 | - | - | inhibition | 1 µg/mL | 68.3%
COC(=O)c1c(O)cc(C)cc1O | Mycobacterium tuberculosis | culture | - | - | H37Rv | - | MIC | - | >100 µg/mL
Clc1cccc(N2CCN(c3cncc(-c4ccccc4)n3)CC2)c1 | Cytomegalovirus | target | UL97 kinase | - | - | - | IC50 | - | <10 µM
OCCN(CCO)c1cccc(Cl)c1 | Mycobacterium tuberculosis | culture | - | - | H37Rv | - | MIC | - | >100 µg/mL
NS(=O)(=O)O | Adenovirus | culture | - | Human embryonic lung cells | TYPE 3 | cytopathic effect | inhibition | 10 µg/mL | 0%
CCC(N=C(N)N)C(=O)O | Mycobacterium tuberculosis | culture | - | - | H37Rv | - | MIC | - | >100 µg/mL
COc1cc(-c2ccc(N=Nc3ccc4c(S(=O)(=O)O)cc(S(=O)(=O)O)c(N)c4c3O)c(OC)c2)ccc1N=Nc1ccc2c(S(=O)(=O)O)cc(S(=O)(=O)O)c(N)c2c1O | Herpes simplex virus | culture | - | Human amnion AV3 cells | - | cytopathic effect | inhibition | 5 µg/mL | 0%

MIC50, MIC90 and the like: level of inhibition, or share of isolates inhibited. Lines come from different laboratories, so protocols vary. ECn: concentration that inhibits the pathogen or its effect by n%. ICn is the concentration giving n% inhibition. Percent inhibition refers to the dose given; in toxicity tests it is the harm to the cells. An empty or dashed field is not shown.